Source: patent US6596700B2, “Methods of treating hepatitis delta virus infection with β-L-2'-deoxy-nucleosides” (priority 2000, dated 2003)

Tested on: hepatitis B virus
Assay: anti-hepatitis B virus activity in transfected Hep G-2 (2.2.15) cells
Assay type: cell-based
Conditions: cytotoxicity IC50 / EC50

SMILES: O=c1ccn([C@@H]2C[C@@H](O)[C@H](CO)O2)c(=O)[nH]1 [β-L-dU, β-L-2′-deoxyuridine]
- Selectivity Index IC50/EC50: >40
